Earlier results, collected in patent US4868155A, “Dipeptidyl 4-0-,6-0-acyl-2-amino-2-deoxy-D-glucose compositions and methods of use in AIDS-immunocompromised human hosts” (Merck & Co., Inc., priority 1987, dated 1989).

Test system: AIDS related virus
Details: clinical trials

For “Interleukin-2: Protein made by white blood cells that mediates production of interferon”, the “clinical benefit (symptoms, immune function) in AIDS / ARC patients” value is listed as “not encouraging”.
